Pooled drug test results. Numbers come from NIAID ChemDB, via PubChem.

Shared fields: tests in culture; species: HIV-1

ECn is the concentration giving n% inhibition of infection, replication or growth.

SMILES,cell line,read-out,read by,strain,mutations,value
CCNC(=O)N1CCn2c(nc(C(=O)NCc3ccc(F)cc3)c(O)c2=O)C1(C)C,MT-4,EC95,p24,-,-,<1 µM
CCC1=C(C(=O)Nc2ccc(Cl)c(C(=O)OCC(C)C)c2)SCCO1,CEM,EC50,syncytia,TIBO-resistant (RT L100I),RT-L100I,0.3 µg/mL
Cc1cc(/C=C/C#N)cc(C)c1Oc1nc(NC2CCN(Cc3ccccc3Cl)CC2)nc2ccsc12,MT-4,EC50,MTT,IIIB,NNRTI-resistant (RT L100I),0.0304 µM
CC(C)=CCOC1(C(F)(F)F)OC(=O)Nc2ccc(F)cc21,-,EC50,-,-,RT-K103N,<0.107 µM
Cc1cc(S(N)(=O)=O)ccc1NC(=O)COc1ccc(Cl)cc1C(=O)c1cc(F)cc(F)c1,HeLa + HELA CD4+,EC50,β-galactosidase,WTRVA,-,<0.01 µM
CCCC1=C(C(=O)Nc2ccc(Cl)c(C(=O)OCC)c2)SCCO1,CEM,EC50,syncytia,TSAO-resistant (RT E138K),RT-E138K,3.7 µg/mL
O=C1Nc2ccc(Cl)cc2[C@@](C#CC2CC2)(C(F)(F)F)O1,MT-4,EC50,-,-,V179F/Y181C,0.0058 µM
CCCOC(=O)c1cc(NC(=O)C2=C(C)OCCS2)ccc1Cl,CEM,EC50,syncytia,PYR-resistant (RT Y181C),RT-Y181C,4.5 µg/mL
CCc1c(Cc2ccccc2C)n(COCC#Cc2cccc3ccccc23)c(=O)[nH]c1=O,MT-4,EC50,MTT,IIIB,WT,1.8 µM
COCC1=C(C(=O)Nc2ccc(Cl)c(C(=O)OC(C)C)c2)SCCO1,CEM,EC50,syncytia,Nevirapine-resistant (RT V106A),RT-V106A,10 µg/mL
CN1CCN(S(=O)(=O)N(C)C2COCCn3c2nc(C(=O)NCc2ccc(F)cc2)c(O)c3=O)CC1,MT-4,EC95,p24,-,-,<1 µM
Cc1cc(S(N)(=O)=O)ccc1NC(=O)COc1ccc(Cl)cc1C(=O)c1cc(F)cc(C(F)(F)F)c1,HeLa + HELA CD4+,EC50,β-galactosidase,HXB2,RT-G190E,<0.01 µM
CCOC(=O)c1cc(NC(=O)C2=C(CC)OCCS2)ccc1Cl,CEM,EC50,syncytia,IIIB,-,0.07 µg/mL
CC(C)CN(CCC(O)CN1CCCC[C@H]1C(=O)NC(C)(C)C)S(=O)(=O)c1ccccc1,CEM,EC50,p24,IIIB,-,<1 µM
Cc1cc(C#N)cc(C)c1Oc1nc(NC2CCN(Cc3ccc(S(N)(=O)=O)cc3)CC2C(=O)O)nc2ccsc12,MT-4,EC50,MTT,IIIB,NNRTI-resistant (RT E138K),3.34 µM
COP(=O)(c1cc(C)cc(CCC#N)c1)c1c(C(N)=O)[nH]c2ccc(Cl)c(F)c12,PBMC,EC50,-,BH10,-,0.0004 µM
O=C(c1ccccc1)N(CCc1ccccc1)C[C@H](O)CN(CC1CCCC1)S(=O)(=O)c1cccnc1,CEM,EC90,p24,IIIB,-,1 µM
CC1=C(C(=O)Nc2ccc(F)c(C(=O)OC(C)C)c2)SCCO1,CEM,EC50,syncytia,Nevirapine-resistant (RT V106A),RT-V106A,>10 µg/mL
CC(C)C1=C2[C@H]3CC[C@@H]4[C@@]5(C)CC[C@H](OC(=O)[C@H]6C[C@@H](C(=O)O)C6(C)C)C(C)(C)[C@@H]5CC[C@@]4(C)[C@]3(C)CC[C@@]2([C@@H](O)CNC(=O)C(C)(C)NC(=O)c2ncc[nH]2)CC1=O,MT-2,EC50,p24 / ELISA,92HT599,-,<1 µM
CCc1c(Cc2cc(C)cc(C)c2)n(COCC#Cc2cc(C(F)(F)F)cc(C(F)(F)F)c2)c(=O)[nH]c1=O,MT-4,EC50,MTT,IIIB,WT,0.8 µM
CC(C)C1=C2[C@H]3CC[C@@H]4[C@@]5(C)CC[C@H](OC(=O)[C@H]6C[C@@H](C(=O)O)C6(C)C)C(C)(C)[C@@H]5CC[C@@]4(C)[C@]3(C)CC[C@@]2([C@@H](O)CNC(=O)c2ccc(CN3CCN(C)CC3)cc2)CC1=O,MT-2,EC50,p24 / ELISA,92HT599,-,<1 µM
CCc1c(Cc2cc(C)cc(C)c2)n(COCC#Cc2cccc(CO)c2)c(=O)[nH]c1=O,MT-4,EC50,MTT,IIIB,EFV-resistant (K103R V179D P225H),7 µM
O=C(COc1ccc(Cl)cc1C(=O)c1nccs1)Nc1ccc2[nH]ncc2c1,MT-4,EC50,cytopathic effect / propidium iodide,Nevirapine-resistant (RT Y181C),RT-Y181C,0.101–1 µM
Clc1cc(CN2CCCNCCNCCCNCC2)cc(Cl)n1,HOS-CD4-CCR5 + HOS,EC50,p24,NL4-3 X4,-,6.9 µM
Cc1cc(/C=C/C#N)cc(C)c1Oc1nc(NC2CCN(Cc3ccncc3)CC2)nc2ccsc12,MT-4,EC50,MTT,RES056,-,0.0294 µM
CC(C)C1=C2[C@H]3CC[C@@H]4[C@@]5(C)CC[C@H](OC(=O)[C@H]6C[C@@H](C(=O)O)C6(C)C)C(C)(C)[C@@H]5CC[C@@]4(C)[C@]3(C)CC[C@@]2(CCNCc2ccccc2Cl)CC1=O,MT-2,EC50,p24 / ELISA,92HT599,-,<1 µM
Cc1cc2[nH]cnc2cc1NC(=O)COc1ccc(Cl)cc1C(=O)c1cc(F)cc(C(F)(F)F)c1,HeLa + HELA CD4+,EC50,β-galactosidase,HXB2 (RT-K103N G190A) Recombinant,RT-K103N G190A,0.011–0.1 µM
Cc1cc(CNC(=O)c2nc3n(c(=O)c2O)CCN(C2CC2)CC3N(C)C(=O)C(=O)N(C)C)ccc1F,MT-4,EC95,p24,-,-,<1 µM
COc1ccc(S(=O)(=O)N(CC[C@@H](O)CN(CC(C)C)S(=O)(=O)c2ccc(OC)cc2)CC(C)C)cc1,CEM,EC50,p24,IIIB,-,<1 µM
COCCOC(=O)c1cc(NC(=O)C2=C(C)OCCS2)ccc1Cl,CEM,EC50,syncytia,Nevirapine-resistant (RT V106A),RT-V106A,>10 µg/mL
CC(C)C1=C2[C@H]3CC[C@@H]4[C@@]5(C)CC[C@H](OC(=O)[C@H]6C[C@@H](C(=O)O)C6(C)C)C(C)(C)[C@@H]5CC[C@@]4(C)[C@]3(C)CC[C@@]2(CCNC[C@@H](C)NC(=O)c2ccc(Cl)cc2)CC1=O,MT-2,EC50,p24 / ELISA,92HT599,-,<1 µM
CCc1c(Cc2cc(C)cc(C)c2)n(COCC#Cc2ccccc2[N+](=O)[O-])c(=O)[nH]c1=O,MT-4,EC50,MTT,IIIB,K103N + Y181C,>10 µM
CC(C)C1=C2[C@H]3CC[C@@H]4[C@@]5(C)CC[C@H](OC(=O)[C@H]6C[C@@H](C(=O)O)C6(C)C)C(C)(C)[C@@H]5CC[C@@]4(C)[C@]3(C)CC[C@@]2(CCNC(=O)c2ccc(Cl)cc2OC2CCNCC2)CC1=O,MT-2,EC50,p24 / ELISA,92HT599,-,<1 µM
O=C1Nc2ccc(F)c(F)c2C(OCC=C(Cl)Cl)(C(F)(F)F)O1,-,EC50,-,-,-,<0.00635 µM
CC1=C(C(=O)Nc2ccc(C)c(C(=O)OC(C)C)c2)SCCO1,CEM,EC50,syncytia,TIBO-resistant (RT L100I),RT-L100I,7 µg/mL
Cc1cc(/C=C/C#N)cc(C)c1Oc1nc(NC2CCN(Cc3cccc(C#N)c3)CC2)nc2ccsc12,MT-4,EC50,MTT,IIIB,NNRTI-resistant (RT F227L V106A),0.0263 µM
CC1=C(C(=O)Nc2cc(C(=O)OC(C)C)c(C)cc2F)SCCO1,CEM,EC50,syncytia,TSAO-resistant (RT E138K),RT-E138K,>10 µg/mL
O=C(c1ccccc1)N(CCc1ccccc1)C[C@H](O)CN(CC1CCCC1)S(=O)(=O)C1CCS(=O)(=O)C1,CEM,EC90,p24,IIIB,-,1 µM
CC(C)C1=C2[C@H]3CC[C@@H]4[C@@]5(C)CC[C@H](OC(=O)[C@H]6C[C@@H](C(=O)O)C6(C)C)C(C)(C)[C@@H]5CC[C@@]4(C)[C@]3(C)CC[C@@]2(CC(=O)NCc2ccc(N3CCC(N4CCOCC4)CC3)cc2)CC1=O,MT-2,EC50,p24 / ELISA,92HT599,-,<1 µM
CCc1cc(C#N)cc(C(=O)c2cc(Cl)ccc2OCC(=O)Nc2ccc(S(N)(=O)=O)cc2C)c1,HeLa + HELA CD4+,EC50,β-galactosidase,HXB2,RT-V106I Y181C,0.011–0.1 µM
CC#CCOC1(C(F)(F)F)OC(=O)Nc2ccc(Cl)cc21,-,EC50,-,-,-,<0.00313 µM
Cc1cc(C#N)cc(C(=O)c2cc(Cl)ccc2OCC(=O)Nc2cnc(S(N)(=O)=O)cc2C)c1,HeLa + HELA CD4+,EC50,β-galactosidase,HXB2,RT-V106I Y181C,0.011–0.1 µM
Cc1cc(/C=C/C#N)cc(C)c1Oc1nc(NC2CCN(Cc3ccc(C#N)cc3)CC2)nc2ccsc12,MT-4,EC50,MTT,RES056,-,0.0597 µM
CN(C)C(=O)C(=O)N(C)C1CN(S(C)(=O)=O)CCn2c1nc(C(=O)NCc1ccc(F)cc1)c(O)c2=O,MT-4,EC95,p24,-,-,<1 µM
CCc1c(Cc2cc(C)cc(C)c2)n(COCC#Cc2ccccc2)c(=O)[nH]c1=O,MT-4,EC50,MTT,IIIB,K103N + Y181C,6 µM
CN1CCn2c(nc(C(=O)NCc3ccc(F)cc3)c(O)c2=O)C1,MT-4,EC95,p24,-,-,<50 µM
C=CCOC1(C(F)(F)F)OC(=O)Nc2ccc(F)c(F)c21,-,EC50,-,-,-,<0.00647 µM
COc1ccc(S(=O)(=O)N(CC(C)C)C(=O)C(=O)C(=O)[C@@H](Cc2ccccc2)NC(=O)OC(C)(C)C)cc1,CEM,EC50,p24,IIIB,-,<1 µM
Cc1cc(OCCCS(N)(=O)=O)ccc1NC(=O)COc1ccc(Cl)cc1C(=O)c1cc(F)cc(C(F)(F)F)c1,HeLa + HELA CD4+,EC50,β-galactosidase,HXB2,RT-V108I,<0.01 µM
O=C1Nc2ccc(Cl)cc2C(OCC2CC2)(C(F)(F)F)O1,-,EC90,-,-,RT-K103N,0.989 µM
CCc1c(Cc2ccccc2C)n(COCC#CC2c3ccccc3-c3ccccc32)c(=O)[nH]c1=O,MT-4,EC50,MTT,IIIB,Y181C,>50 µM
Cc1cc(OCCCN2CCOCC2)ccc1NC(=O)COc1ccc(Cl)cc1C(=O)c1cccs1,HeLa + HELA CD4+,EC50,β-galactosidase,HXB2 (RT-K103N Y181C) Recombinant,RT-K103N Y181C,0.101–1 µM
Cc1cc(C#N)cc(C)c1Oc1nc(NC2CCN(Cc3ccc(S(N)(=O)=O)cc3)CC2F)nc2ccsc12,MT-4,EC50,MTT,IIIB,NNRTI-resistant (RT Y181C),0.03 µM
Cc1nnc(CN2CCn3c(nc(C(=O)NCc4ccc(F)cc4)c(O)c3=O)C2(C)C)o1,MT-4,EC95,p24,-,-,<1 µM
Cc1cc(C#N)cc(C(=O)c2cc(Cl)ccc2OCC(=O)Nc2ccc(S(N)(=O)=O)cc2C)c1,HeLa + HELA CD4+,EC50,β-galactosidase,HXB2,RT-V106I,<0.01 µM
Nc1ccn([C@@H]2C=C(F)[C@H](CO)O2)c(=O)n1,PBMC,EC50,RT activity,BRU,-,<0.14 µM
CC(C)CN(CC(O)Cn1ccnc1S(=O)(=O)c1ccccc1)S(=O)(=O)c1ccccc1,CEM,EC90,p24,IIIB,-,1 µM

Conditions beyond the fields shown may differ between rows. An empty or dashed field is not shown. a–b is a range or a potency band.